For at least one entry, the source does not settle the construct or the ends of the probe. At least one verdict was read from the data and is not stated in words by the source.
Biological target: MBP-Rns WT (enterotoxigenic Escherichia coli (ETEC)) (UniProt P16114)
Test: EMSA
Conditions: no decanoic acid (DMSO); recombinant protein; protein details: N-terminal MBP; label: 5' Cy5.5 on both strands

Chains of the proteins cited; added tags and fusions are not shown. Lines headed by an entry give the natural chain unless they say otherwise; changes in a name come on top.
UniProt P16114: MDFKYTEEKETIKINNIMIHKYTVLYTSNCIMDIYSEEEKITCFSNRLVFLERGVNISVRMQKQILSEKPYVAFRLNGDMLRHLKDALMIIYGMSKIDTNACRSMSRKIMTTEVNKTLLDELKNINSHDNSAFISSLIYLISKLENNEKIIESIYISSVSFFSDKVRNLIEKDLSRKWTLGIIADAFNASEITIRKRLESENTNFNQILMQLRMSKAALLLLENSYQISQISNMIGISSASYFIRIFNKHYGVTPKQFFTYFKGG

“TAGATGGAATGTGTTATTTTTTTATCAAAATTATATTTGT (double strand) [2107/2108 prototypical Rns binding site]”: binds.
